Measured values from several laboratories, pooled; numbers as filed in NIAID ChemDB.

Shared fields: growth or infection tests; species: Candida glabrata; read-out: MIC

Rows are shuffled and stem from different studies. Blank or dashed fields: not listed here.

| smiles | strain | method | setting | value |
|---|---|---|---|---|
| O=C(CCn1ccnc1)c1ccc(-c2ccccc2)cc1 | RTCC 1054 | broth dilution |  | 32 µg/mL |
| CCC(C)CC(C)CCCCCCCCC(=O)N[C@H]1C[C@@H](O)[C@H](NCCN)NC(=O)[C@@H]2[C@@H](O)CCN2C(=O)[C@H]([C@H](O)CCN)NC(=O)[C@H]([C@H](O)[C@@H](O)c2ccc(O)cc2)NC(=O)[C@@H]2C[C@@H](O)CN2C(=O)[C@H]([C@@H](C)O)NC1=O | 1 | broth dilution |  | 0.063 µg/mL |
| CCCCCCCCCCCCCCCC(=O)NC(CCCCN)C(=O)NC(CCCCN)C(N)=O | 4883 | broth dilution |  | 2 µg/mL |
| O=C(CCn1ccnc1)c1cccc(C(O)c2ccc(Cl)cc2)c1 | RTCC 1040 | broth dilution |  | 32 µg/mL |
| O/N=C(/COc1cccc(Cl)c1)c1ccccc1 | ATCC 90030 | broth dilution | 48 h | 31.25 µg/mL |
| OC(CCn1ccnc1)c1cccc(C(O)c2ccc(Cl)cc2)c1 | RTCC 1040 | broth dilution |  | >64 µg/mL |
| COc1ccc(OC/C(=N/O)c2ccccc2)cc1 | ATCC 90030 | broth dilution | 48 h | >125 µg/mL |
| Clc1ccccc1C(c1ccccc1)(c1ccccc1)n1ccnc1 | 40 isolates | broth dilution | pH 7 | 0.125 µg/mL |
| CC[C@@H]([C@H](C)O)n1ncn(-c2ccc(N3CCN(c4ccc(OC[C@@H]5CO[C@@](Cn6cncn6)(c6ccc(F)cc6F)C5)cc4)CC3)cc2)c1=O | 8659 | broth dilution |  | 1 µg/mL |
| O=C1c2ccccc2CC1Cn1ccnc1 | RTCC 1040 | broth dilution |  | >64 µg/mL |
| C[C@@H]1C(=O)N(CCCc2ccccc2)C(=O)[C@@H]1C | CCC 115-2000 | broth dilution / turbidity |  | 62.5 µg/mL |
| O/N=C(/COc1cccc(F)c1)c1ccccc1 | ATCC 90030 | broth dilution | 24 h | >125 µg/mL |
| C[C@@H](c1ncncc1F)[C@](O)(Cn1cncn1)c1ccc(F)cc1F | 40 isolates | broth dilution | pH 6 | 2 µg/mL |
| CCC(C)CC(C)CCCCCCCCC(=O)N[C@H]1C[C@@H](O)[C@H](NCCN)NC(=O)[C@@H]2[C@@H](O)CCN2C(=O)[C@H]([C@H](O)CCN)NC(=O)[C@H]([C@H](O)[C@@H](O)c2ccc(O)cc2)NC(=O)[C@@H]2C[C@@H](O)CN2C(=O)[C@H]([C@@H](C)O)NC1=O | C454 | broth dilution |  | 1 µg/mL |
| C[C@@H]1C(=O)N(c2ccccc2)C(=O)[C@@H]1C | CCC 115-2000 | broth dilution / turbidity |  | 62.5 µg/mL |
| O=C(COc1cccc(F)c1)c1ccccc1 | ATCC 90030 | broth dilution | 48 h | >125 µg/mL |
| CCC(C)CC(C)CCCCCCCCC(=O)N[C@H]1C[C@@H](O)[C@H](NCCN)NC(=O)[C@@H]2[C@@H](O)CCN2C(=O)[C@H]([C@H](O)CCN)NC(=O)[C@H]([C@H](O)[C@@H](O)c2ccc(O)cc2)NC(=O)[C@@H]2C[C@@H](O)CN2C(=O)[C@H]([C@@H](C)O)NC1=O | 40 isolates | broth dilution | pH 4 | 0.5 µg/mL |
| C[C@@H]1CC(=O)N(c2ccc([N+](=O)[O-])cc2)C1=O | CCC 115-2000 | broth dilution / turbidity |  | 125 µg/mL |
| COc1ccccc1OC/C(=N/O)c1ccccc1 | ATCC 90030 | broth dilution | 24 h | >125 µg/mL |
| CC1C(=O)N(CCc2ccccc2)C(=O)C1C | CCC 115-2000 | broth dilution / turbidity |  | 125 µg/mL |
| O=C(CCn1ccnc1)c1ccc2ccccc2c1 | RTCC 1054 | broth dilution |  | 64 µg/mL |
| CCC(C)CC(C)CCCCCCCCC(=O)N[C@H]1C[C@@H](O)[C@H](NCCN)NC(=O)[C@@H]2[C@@H](O)CCN2C(=O)[C@H]([C@H](O)CCN)NC(=O)[C@H]([C@H](O)[C@@H](O)c2ccc(O)cc2)NC(=O)[C@@H]2C[C@@H](O)CN2C(=O)[C@H]([C@@H](C)O)NC1=O | 8655 | broth dilution |  | 4 µg/mL |
| CC[C@@H]([C@H](C)O)n1ncn(-c2ccc(N3CCN(c4ccc(OC[C@@H]5CO[C@@](Cn6cncn6)(c6ccc(F)cc6F)C5)cc4)CC3)cc2)c1=O | 40 isolates | broth dilution | pH 7 | 0.125 µg/mL |
| COc1ccc(OCC(=O)c2ccccc2)cc1 | ATCC 90030 | broth dilution | 24 h | >125 µg/mL |
| O=P(O)(O)OP(=O)(O)OP(=O)(O)O | MC426 | broth dilution |  | 390 µg/mL |
| OC(Cn1cncn1)(Cn1cncn1)c1ccc(F)cc1F | Clinical isolates |  |  | 17.3 µg/mL |
| O=c1c(N2CCOCC2)c(N2CCN(S(=O)(=O)Cc3ccccc3)CC2)cnn1-c1ccccc1 | C624 | broth dilution |  | 0.4 µg/mL |

A second listing of 3 rows from above:

{"smiles": "COc1ccc(OCC(=O)c2ccccc2)cc1", "strain": "ATCC 90030", "method": "broth dilution", "setting": "24 h", "value": ">125 µg/mL"}
{"smiles": "C[C@@H]1C(=O)N(CCCc2ccccc2)C(=O)[C@@H]1C", "strain": "CCC 115-2000", "method": "broth dilution / turbidity", "value": "62.5 µg/mL"}
{"smiles": "CCC(C)CC(C)CCCCCCCCC(=O)N[C@H]1C[C@@H](O)[C@H](NCCN)NC(=O)[C@@H]2[C@@H](O)CCN2C(=O)[C@H]([C@H](O)CCN)NC(=O)[C@H]([C@H](O)[C@@H](O)c2ccc(O)cc2)NC(=O)[C@@H]2C[C@@H](O)CN2C(=O)[C@H]([C@@H](C)O)NC1=O", "strain": "8655", "method": "broth dilution", "value": "4 µg/mL"}